From patent publication US20060216692, “Switchable nucleic acids for diagnostics, screening and molecular electronics” (published 2006)

Biological target: NCp7 (nucleocapsid protein, Zn2.NCp7(1-55)) (HIV-1) (UniProt P35962)
Details: Trp37 fluorescence quenching, 0.2 M NaCl; average of 11 determinations

With SL3 20mer as the substance, how does the Kd read?
Its Kd is 28 nM.
